Pooled drug test results. Numbers come from NIAID ChemDB, via PubChem.

Shared fields: enzyme or target tests; organism: HIV-1; protein: Tat:TAR/LTR; measure: IC50

Conditions beyond the fields shown may differ between rows. Blank or dashed fields: not listed here. ICn is the concentration giving n% inhibition.

structure | read by | result
NCCCCN(CCCN)CCCNC(=O)c1c2ccccc2nc2ccccc12 | gel | 0.25 µM
CCSc1ccc2c(c1)N(CCCN1CCN(C)CC1)c1ccccc1S2 | gel | >10 µM
CN(C)CCCN1c2ccccc2Sc2ccc(Cl)cc21 | FRET | 500 µM
NCCN(CCN)CCNc1c2ccccc2nc2ccccc12 | gel | 0.17 µM
CN1CCN(c2ccc3nc(-c4ccc(OCc5cn(CCCCCn6cc(CCCCc7cn(C[C@H]8O[C@@H](O[C@@H]9[C@@H](O)[C@H](N)C[C@H](N)[C@H]9O[C@H]9O[C@H](CN)[C@@H](O)[C@H](O)[C@H]9N)[C@H](O)[C@@H]8O[C@H]8O[C@@H](CN)[C@@H](O)[C@H](O)[C@H]8N)nn7)nn6)nn5)cc4)[nH]c3c2)CC1 | FRET / binding | 11.6 µM
CNC(=O)[C@@H](Cc1ccccc1)NP(=O)(O)OC[C@H]1O[C@@H](n2cc(C)c(=O)[nH]c2=O)C[C@@H]1N=[N+]=[N-] | fluorescence | 0.0028 µM
COc1ccc2nc3cc(Cl)ccc3c(NCCCN(CCCN)CCCCN)c2c1 | gel | 0.022 µM
NCCCC[C@@H](CN[C@H](CNCCC(N)=O)Cc1ccc(O)cc1)NC[C@H](Cc1ccc(O)cc1)NC[C@H](CCCCN)NC[C@H](Cc1c[nH]c2ccccc12)NC[C@@H](N)Cc1ccc(O)cc1 | luciferase | 0.2 µM
NCCCCN(CCCCN)CCNc1c2ccccc2nc2ccccc12 | gel | >1 µM
CN(C)CCn1c2ccccc2c2cc3nc(Cl)ccc3cc21 | FRET | 46 µM
NCCCN(CCCN)CCCNc1c2ccccc2nc2ccccc12 | gel | 0.031 µM
NCC1O[C@H](O[C@H]2C(N)C[C@@H](N)C(O)[C@H]2O[C@@H]2O[C@H](CNC(=O)[C@@H](N)Cc3cnc[nH]3)[C@H](O[C@H]3O[C@@H](CN)[C@@H](O)C(O)C3N)C2O)C(N)[C@@H](O)[C@@H]1O | RNase H / fluorescence | 1.93 µM
CC(=O)NCCN(CCC(=O)NCCN(CCC(=O)NCCN(CCC(=O)NCCN(CCC(=O)NCCN(CCC(=O)NCCC(N)=O)C(=O)[C@@H](N)Cc1ccccc1)C(=O)[C@@H](N)CCCN=C(N)N)C(=O)[C@@H](N)Cc1ccccc1)C(=O)[C@@H](N)CCCN=C(N)N)C(=O)[C@@H](N)Cc1ccccc1 | FRET / fluorescence | 0.413 µM
NCCCCN(CCCN)CCCNc1c2ccccc2nc2ccccc12 | gel | 0.073 µM
CC(CC(N)=O)NC[C@H](Cc1ccc(O)cc1)NC[C@H](Cc1ccc(O)cc1)NC[C@@H](N)Cc1ccc(O)cc1 | luciferase | 82.8 µM
NCC(=O)N1CCC[C@H]1C(=O)NCC(N)=O | - | >100 µM
CC(=O)NCCN(CCC(=O)NCCN(CCC(=O)NCCN(CCC(=O)NCCN(CCC(=O)NCCN(CCC(=O)NCCC(N)=O)C(=O)[C@@H](N)Cc1ccccc1)C(=O)[C@@H](N)CCCN=C(N)N)C(=O)[C@@H](N)Cc1ccccc1)C(=O)[C@@H](N)CCCCN)C(=O)[C@@H](N)Cc1ccccc1 | FRET / fluorescence | 1.1 µM
NCCCC[C@@H](CN[C@H](CNCCC(N)=O)Cc1ccc(O)cc1)NC[C@H](Cc1ccc(O)cc1)NC[C@H](CCCCN)NC[C@H](Cc1ccc(O)cc1)NC[C@@H](N)Cc1ccc(O)cc1 | luciferase | 0.4 µM
NCCCC[C@H](COC(=O)O)NC(=O)CN(CCCCN)C(=O)OC[C@@H](N)CCCN=C(N)N | nucleotide incorporation / radiometric | 50 µM
NC(=O)CCNC[C@H](Cc1ccc(O)cc1)NC[C@H](Cc1ccc(O)cc1)NC[C@H](Cc1ccc(O)cc1)NC[C@H](Cc1ccc(O)cc1)NC[C@H](Cc1ccc(O)cc1)NC[C@H](Cc1ccc(O)cc1)NC[C@@H](N)Cc1ccc(O)cc1 | luciferase | 0.5 µM
CC(=O)NCCN(CCC(=O)NCCN(CCC(=O)NCCN(CCC(=O)NCCN(CCC(=O)NCCN(CCC(=O)NCCC(N)=O)C(=O)[C@@H](N)Cc1ccccc1)C(=O)[C@@H](N)CCCN=C(N)N)C(=O)[C@@H](N)Cc1ccccc1)C(=O)[C@@H](N)CCCCN)C(=O)[C@@H](N)CCCCN | FRET / fluorescence | 0.593 µM
N#Cc1ccc([N+](=O)[O-])c(NCCC[NH3+])c1 | ELISA | 63.4 µM

For reference, 2 entries again:

structure,read by,result
NCC1O[C@H](O[C@H]2C(N)C[C@@H](N)C(O)[C@H]2O[C@@H]2O[C@H](CNC(=O)[C@@H](N)Cc3cnc[nH]3)[C@H](O[C@H]3O[C@@H](CN)[C@@H](O)C(O)C3N)C2O)C(N)[C@@H](O)[C@@H]1O,RNase H / fluorescence,1.93 µM
CN1CCN(c2ccc3nc(-c4ccc(OCc5cn(CCCCCn6cc(CCCCc7cn(C[C@H]8O[C@@H](O[C@@H]9[C@@H](O)[C@H](N)C[C@H](N)[C@H]9O[C@H]9O[C@H](CN)[C@@H](O)[C@H](O)[C@H]9N)[C@H](O)[C@@H]8O[C@H]8O[C@@H](CN)[C@@H](O)[C@H](O)[C@H]8N)nn7)nn6)nn5)cc4)[nH]c3c2)CC1,FRET / binding,11.6 µM